Measured values from several laboratories, pooled; numbers as filed in NIAID ChemDB.

All rows: tests on isolated targets; agent: HIV-1; target: Reverse transcriptase

Conditions beyond the fields shown may differ between rows.

{"compound": "CCN1c2ncc(CCOc3ccc(-c4ccc(C(C)C(=O)O)cc4)cc3C)cc2C(=O)N(C)c2cccnc21", "read-out": "IC50", "strain": "IIIB", "method": "nucleotide incorporation / radiometric", "result": "<0.05 µM"}
{"compound": "CC(C)(C#Cc1ccc(NC(=O)CSc2nnnn2-c2ccc(C(C)(C)C)cc2Cl)c(Cl)c1)OCC(=O)N1CCCC1", "read-out": "IC50", "strain": "WT", "method": "PicoGreen / fluorescence", "result": "<1 µM"}
{"compound": "Cc1cc(-c2ccc(CC(=O)O)cc2)ccc1OCCc1cnc2c(c1)C(=O)N(C)c1cccnc1N2", "changes": "RT-K103N Y181C", "read-out": "IC50", "strain": "IIIB", "method": "nucleotide incorporation / radiometric", "result": ">0.1 µM"}
{"compound": "Fc1ccc2c(c1)CCN(c1nn3c(C4CC4)nnc3c3ccccc13)C2", "read-out": "IC50", "strain": "98US_MSC5016", "method": "RT activity / fluorescence", "result": "2.89 µM"}
{"compound": "CCN1c2ncc(CCOc3ccc(CCC(=O)O)c4ccccc34)cc2C(=O)N(C)c2ccc(F)nc21", "changes": "RT-V106A", "read-out": "IC50", "method": "nucleotide incorporation / radiometric", "result": ">1 µM"}
{"compound": "CCN1c2ncc(CCOc3ccc(C(=O)NS(C)(=O)=O)cc3C)cc2C(=O)N(C)c2cccnc21", "changes": "RT-K103N Y181C", "read-out": "IC50", "strain": "IIIB", "method": "nucleotide incorporation / radiometric", "result": "0.05–0.1 µM"}
{"compound": "CC(C)(N)C#Cc1ccc(NC(=O)CSc2nnnn2-c2cc(C(C)(C)C)ccc2Cl)c(Cl)c1", "changes": "RT-K103 Y181C", "read-out": "IC50", "method": "PicoGreen / fluorescence", "result": "<1 µM"}
{"compound": "CCN1c2ncc(CCOc3ccc4cc(CC(=O)O)ccc4c3)cc2C(=O)N(C)c2cccnc21", "read-out": "IC50", "strain": "WT", "method": "nucleotide incorporation / radiometric", "result": "<0.1 µM"}
{"compound": "CCN1c2ncc(CCOc3ccc(C(=O)NN)cc3C)cc2C(=O)N(C)c2cccnc21", "read-out": "IC50", "strain": "IIIB", "method": "nucleotide incorporation / radiometric", "result": "<0.05 µM"}
{"compound": "CCN1c2ncc(CCOc3ccc(CC(=O)O)c4ccccc34)cc2C(=O)Nc2c(C)cc(F)nc21", "changes": "RT-K103N Y181C", "read-out": "IC50", "method": "nucleotide incorporation / radiometric", "result": "0.1–1 µM"}
{"compound": "CC(C)(C#Cc1ccc(NC(=O)CSc2nnnn2-c2ccc(C3CC3)cc2Cl)c(Cl)c1)NCC(N)=O", "read-out": "IC50", "strain": "WT", "method": "PicoGreen / fluorescence", "result": "<1 µM"}
{"compound": "CCN1c2ncc(CCOc3ccc(CC(C)C(=O)O)c4ccccc34)cc2C(=O)N(C)c2ccc(C)nc21", "changes": "RT-K103N Y181C", "read-out": "IC50", "method": "nucleotide incorporation / radiometric", "result": "0.1–1 µM"}
{"compound": "CC1(C)CN(CCOC(C)(C)C#Cc2ccc(NC(=O)CSc3nnnn3-c3ccc(C4CC4)cc3Cl)c(Cl)c2)C=N1", "read-out": "IC50", "strain": "WT", "method": "PicoGreen / fluorescence", "result": "<1 µM"}
{"compound": "CCN1c2ncc(CCOc3ccc(C(=O)NN)cc3C)cc2C(=O)Nc2c(C)ccnc21", "changes": "RT-K103N Y181C", "read-out": "IC50", "strain": "IIIB", "method": "nucleotide incorporation / radiometric", "result": "0.05–0.1 µM"}
{"compound": "N#Cc1ccc2c(c1)CN(c1nn3c(C4CC4)nnc3c3ccccc13)CC2", "read-out": "IC50", "strain": "98US_MSC5016", "method": "RT activity / fluorescence", "result": "1.96 µM"}
{"compound": "CCN1c2ncc(CCOc3ccc(C(C)C(=O)O)c4ccccc34)cc2C(=O)N(C)c2cccnc21", "changes": "RT-V106A", "read-out": "IC50", "method": "nucleotide incorporation / radiometric", "result": ">1 µM"}
{"compound": "CC(C)(C#Cc1ccc(NC(=O)CSc2nnnn2-c2ccc(C3CC3)cc2Cl)c(Cl)c1)NC(=O)CNCCCn1ccnc1", "read-out": "IC50", "strain": "WT", "method": "PicoGreen / fluorescence", "result": "<1 µM"}
{"compound": "COc1cc2c(cc1[N+](=O)[O-])CN(c1nn3c(C4CC4)nnc3c3ccccc13)CC2", "read-out": "IC50", "strain": "98US_MSC5016", "method": "RT activity / fluorescence", "result": "39.2 µM"}
{"compound": "CCS(=O)(=O)NC(=O)C(C)(C)C#Cc1ccc(NC(=O)CSc2nnnn2-c2ccc(C3CC3)cc2Cl)c(Cl)c1", "changes": "RT-K103 Y181C", "read-out": "IC50", "method": "PicoGreen / fluorescence", "result": "<1 µM"}
{"compound": "CCN1c2ncc(CCOc3ccc(C(=O)N=c4ccccn4O)cc3C)cc2C(=O)N(C)c2cccnc21", "read-out": "IC50", "strain": "IIIB", "method": "nucleotide incorporation / radiometric", "result": "<0.05 µM"}
{"compound": "c1csc(-c2nnc3c4ccccc4c(N4CCc5ccccc5C4)nn23)c1", "read-out": "IC90", "strain": "KER2008", "method": "RT activity / fluorescence", "result": ">100 µM"}
{"compound": "CC(CC(=O)O)NC(=O)COc1ccc(NC(=O)CSc2nnnn2-c2ccc(C(C)(C)C)cc2Cl)c(Cl)c1", "read-out": "IC50", "strain": "WT", "method": "PicoGreen / fluorescence", "result": "<1 µM"}
{"compound": "CCN1c2ncc(CCOc3ccc(-c4ccc(CC(=O)O)cc4[N+](=O)[O-])cc3C)cc2C(=O)N(C)c2cccnc21", "read-out": "IC50", "strain": "IIIB", "method": "nucleotide incorporation / radiometric", "result": "<0.05 µM"}
{"compound": "Cc1c(NC(=O)CSc2nnnn2-c2ccc(C3CC3)cc2Cl)ccc(C#CC(C)(C)NC(=O)c2cc[n+]([O-])cc2)c1F", "read-out": "IC50", "strain": "WT", "method": "PicoGreen / fluorescence", "result": "<1 µM"}
{"compound": "CCN1c2ncc(CCOc3ccc(CC(=O)O)c4c3CCCC4)cc2C(=O)N(C)c2ccc(Cl)nc21", "read-out": "IC50", "strain": "WT", "method": "nucleotide incorporation / radiometric", "result": "<0.1 µM"}
{"compound": "CC(C)(C#Cc1ccc(NC(=O)CSc2nnnn2-c2ccc(C(C)(C)C)cc2Cl)c(Cl)c1)OCC(=O)Nc1ccccc1", "read-out": "IC50", "strain": "WT", "method": "PicoGreen / fluorescence", "result": "<1 µM"}
{"compound": "CCN1c2ncc(CCOc3ccc(-c4cc(C)[n+]([O-])c(C)c4)cc3C)cc2C(=O)N(C)c2cccnc21", "changes": "RT-K103N Y181C", "read-out": "IC50", "strain": "IIIB", "method": "nucleotide incorporation / radiometric", "result": "<0.05 µM"}

Repeating the final 2 entries:

compound | changes | read-out | strain | method | result
CC(C)(C#Cc1ccc(NC(=O)CSc2nnnn2-c2ccc(C(C)(C)C)cc2Cl)c(Cl)c1)OCC(=O)Nc1ccccc1 |  | IC50 | WT | PicoGreen / fluorescence | <1 µM
CCN1c2ncc(CCOc3ccc(-c4cc(C)[n+]([O-])c(C)c4)cc3C)cc2C(=O)N(C)c2cccnc21 | RT-K103N Y181C | IC50 | IIIB | nucleotide incorporation / radiometric | <0.05 µM

Two numbers with a dash give a range or band. ICn is the concentration giving n% inhibition. An empty or dashed field is not shown.